Compound potency records, mixed from different reports. Data source: NIAID ChemDB in PubChem.

All rows: growth or infection tests; organism: Aspergillus niger; endpoint: MIC

Blank or dashed fields: not listed here. Neighbouring rows are from separate reports.

structure | strain | read by | result
COc1ccc(C2=NN(Cc3n[nH]c(=S)n3-c3ccc(Br)cc3)C(=O)CC2)cc1 | - | - | 12 µg/mL
O=C(NN1C(=O)/C(=C\c2ccccc2)SC1c1cccc(Br)c1)c1ccc(-c2ccccc2)cc1 | MTCC 8189 | - | 6.25 µg/mL
Cc1ccc(NC(=O)CCN2C(=O)S/C(=C\c3ccc(O)c(O)c3O)C2=O)cc1 | - | - | 50 µg/mL
Cc1ccc2nc(NC(=O)CSc3nnc(-c4ccc5ncccc5c4)o3)sc2c1 | - | agar | 100 µg/mL
O=C1CCC(c2ccc(Cl)cc2)=NN1Cc1n[nH]c(=S)n1-c1ccc(Br)cc1 | - | - | 4 µg/mL
O=C(NN1C(=O)/C(=C\c2ccc(Cl)cc2)SC1c1cccc(Br)c1)c1ccc(-c2ccccc2)cc1 | MTCC 8189 | - | 3.12 µg/mL
COc1ccccc1C=NNC(=O)c1cnc2c(ccc3[nH]c(Cl)cc(C)c32)c1=O | - | broth dilution | 1000 µg/mL
Clc1ccc2c(c1)OCC(n1ccnc1)/C2=N\Nc1ccccc1 | PTCC 5012 | agar | 64 µg/mL
CC(=Nc1cccc2cccc(N=C(C)c3c(O)ccc4c(C)cc(=O)oc34)c12)c1c(O)ccc2c(C)cc(=O)oc12 | MTCC 1881 | - | 15 µg/mL
O=C(CSc1nnc(-c2ccc3ncccc3c2)o1)Nc1nc2ccc(Br)cc2s1 | - | agar | 25 µg/mL
Cc1cc(Cl)[nH]c2ccc3c(=O)c(C(=O)NN4C(=O)C(Cl)C4c4ccccc4)cnc3c12 | - | broth dilution | >1000 µg/mL
c1ccc(N/N=C2/c3ccccc3OCC2n2cncn2)cc1 | PTCC 5012 | agar | 16 µg/mL
Cc1c(Cl)cccc1NC(=O)CCN1C(=O)S/C(=C\c2ccc(O)cc2O)C1=O | - | - | 50 µg/mL
COc1ccc2nc(NC(=O)CSc3nnc(-c4ccc5ncccc5c4)o3)sc2c1 | - | agar | 50 µg/mL
COc1cc(/C=N/O)ccc1OP1(Oc2ccc(/C=N/OC(=O)c3ccccc3)cc2OC)=NP(Oc2ccc(/C=N/OC(=O)c3ccccc3)cc2OC)(Oc2ccc(/C=N/OC(=O)c3ccccc3)cc2OC)=NP(Oc2ccc(/C=N/OC(=O)c3ccccc3)cc2OC)(Oc2ccc(/C=N/OC(=O)c3ccccc3)cc2OC)=N1 | - | agar diffusion / agar | 75 µg/mL
Cc1cc(C)cc(/C=C2\SC(=O)N(CCC(=O)Nc3ccccc3O)C2=O)c1 | - | - | 50 µg/mL
Cc1cc(Cl)[nH]c2ccc3c(=O)c(C(=O)NN=Cc4cccc([N+](=O)[O-])c4O)cnc3c12 | - | broth dilution | 500 µg/mL
O=C(CCN1C(=O)S/C(=C\c2ccccc2Br)C1=O)Nc1ccccc1[N+](=O)[O-] | - | - | 12.5 µg/mL
COc1ccccc1C1C(Cl)C(=O)N1NC(=O)c1cnc2c(ccc3[nH]c(Cl)cc(C)c32)c1=O | - | broth dilution | >1000 µg/mL
Cc1ccc(C2=NN(Cc3n[nH]c(=S)n3-c3ccccc3)C(=O)CC2)cc1 | - | - | 7 µg/mL
COc1ccc(C(=O)O/N=C/c2ccc(OP3(Oc4ccc(/C=N/OC(=O)c5ccc(OC)cc5)cc4OC)=NP(Oc4ccc(/C=N/OC(=O)c5ccc(OC)cc5)cc4OC)(Oc4ccc(/C=N/OC(=O)c5ccc(OC)cc5)cc4OC)=NP(Oc4ccc(/C=N/OC(=O)c5ccc(OC)cc5)cc4OC)(Oc4ccc(/C=N/OC(=O)c5ccc(OC)cc5)cc4OC)=N3)c(OC)c2)cc1 | - | agar diffusion / agar | >100 µg/mL
Cc1cc(Cl)[nH]c2ccc3c(=O)c(C(=O)NN=Cc4ccccc4O)cnc3c12 | - | broth dilution | 500 µg/mL
O=C(CCN1C(=O)S/C(=C\c2ccc(O)cc2O)C1=O)Nc1ccccc1O | - | - | 25 µg/mL
O=C(NN1C(=O)/C(=C\c2cccc([N+](=O)[O-])c2)SC1c1cccc(Br)c1)c1ccc(-c2ccccc2)cc1 | MTCC 8189 | - | 3.12 µg/mL
Cc1cc(NC(=O)CCN2C(=O)S/C(=C\c3ccc(Cl)cc3)C2=O)ccc1Cl | - | - | 25 µg/mL
C[C@H]1[C@H](O)[C@@H](C)/C=C/C=C/C=C/C=C/C=C/C=C/C=C/[C@H](O[C@@H]2O[C@H](C)[C@@H](O)[C@H](N)[C@@H]2O)C[C@@H]2O[C@](O)(C[C@@H](O)C[C@@H](O)CC[C@H](O)[C@@H](O)C[C@@H](O)CC(=O)O[C@H]1C)C[C@H](O)[C@H]2C(=O)O | As2 | agar diffusion | 36 µg/mL
COc1ccc(C2C(Cl)C(=O)N2NC(=O)c2cnc3c(ccc4[nH]c(Cl)cc(C)c43)c2=O)cc1 | - | broth dilution | >1000 µg/mL
O=C(CSc1nnc(-c2ccc3ncccc3c2)o1)Nc1nc2ccc(Cl)cc2s1 | - | agar | 50 µg/mL
O=C1CCC(c2ccc(Br)cc2)=NN1Cc1n[nH]c(=S)n1-c1ccccc1 | - | - | 9 µg/mL
C[C@H]1N(C(=O)c2ccc(C(F)(F)F)cc2)CCO[C@@]1(Cn1cncn1)c1ccc(F)cc1F | Isolate 1 | - | 50 µg/mL
COc1cc(/C=N/OC(C)=O)ccc1OP1(Oc2ccc(/C=N/OC(C)=O)cc2OC)=NP(Oc2ccc(/C=N/OC(C)=O)cc2OC)(Oc2ccc(/C=N/OC(C)=O)cc2OC)=NP(Oc2ccc(/C=N/OC(C)=O)cc2OC)(Oc2ccc(/C=N/OC(C)=O)cc2OC)=N1 | - | agar diffusion / agar | >100 µg/mL
O=C(NN1C(=O)/C(=C\c2cccc(Br)c2)SC1c1cccc(Br)c1)c1ccc(-c2ccccc2)cc1 | MTCC 8189 | - | 1.56 µg/mL
COc1cc(/C=N/O)ccc1OP1(Oc2ccc(/C=N/OC(=O)c3cccs3)cc2OC)=NP(Oc2ccc(/C=N/O)cc2OC)(Oc2ccc(/C=N/OC(=O)c3cccs3)cc2OC)=NP(Oc2ccc(/C=N/OC(=O)c3cccs3)cc2OC)(Oc2ccc(/C=N/OC(=O)c3cccs3)cc2OC)=N1 | - | agar diffusion / agar | 75 µg/mL
Cc1cc(Cl)[nH]c2ccc3c(=O)c(C(=O)NN4C(=O)C(Cl)C4c4cccc([N+](=O)[O-])c4O)cnc3c12 | - | broth dilution | >1000 µg/mL
Cc1ccc(NC(=O)CCN2C(=O)S/C(=C\c3ccccc3)C2=O)c(Cl)c1 | - | - | 25 µg/mL

Again, the opening 5 rows:

structure,strain,read by,result
COc1ccc(C2=NN(Cc3n[nH]c(=S)n3-c3ccc(Br)cc3)C(=O)CC2)cc1,-,-,12 µg/mL
O=C(NN1C(=O)/C(=C\c2ccccc2)SC1c1cccc(Br)c1)c1ccc(-c2ccccc2)cc1,MTCC 8189,-,6.25 µg/mL
Cc1ccc(NC(=O)CCN2C(=O)S/C(=C\c3ccc(O)c(O)c3O)C2=O)cc1,-,-,50 µg/mL
Cc1ccc2nc(NC(=O)CSc3nnc(-c4ccc5ncccc5c4)o3)sc2c1,-,agar,100 µg/mL
O=C1CCC(c2ccc(Cl)cc2)=NN1Cc1n[nH]c(=S)n1-c1ccc(Br)cc1,-,-,4 µg/mL